Measurements reported in PubChem BioAssay AID1259414 (Drosophila RNAi Screening Center, 2018).

Assay: 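Host factors increasing or decreasing Wolbachia levels in cultured fly cells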 (primary screen)
System: Drosophila JW18 cells infected with Wolbachia
Reagent: long dsRNA against Drosophila genes, 0.25 µg dsRNA per well of a 384-well plate
Duration: 5 days
Conditions: cells persistently infected with Wolbachia before knock-down; no added drug
Measurement: 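Automated imaging of bacterial rRNA staining divided by host cell count, reported as plate-normalised robust z-score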
Scale: Wolbachia per cell robust z: higher = more Wolbachia per host cell than the plate typical
Hit rule: 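Hit when robust z is 1.5 or more, or -1.5 or less, in at least two of three replicates; excludes dsRNAs with several or no targets, genes not expressed in JW18 and well A1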
The screen tested about 24,000 reagents; shown is an unselected part of those with a known target gene and a result. Over the whole deposit, about 1,210 (5%) were called active. 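Inactive calls also include excluded dsRNAs with several or no targets, genes unexpressed in JW18, and well A1, regardless of score.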 Unmarked entries are inactive. Reagents against one gene are numbered here. Names joined by + are all predicted targets of the reagent.

The opening 3 entries, to show the layout:
gene	reagent	Wolbachia per cell robust z, rep 1	Wolbachia per cell robust z, rep 2	Wolbachia per cell robust z, rep 3
mtDNA-helicase (mitochondrial DNA helicase)	1	-0.677	-5.01	-0.0534
Obp56c (Odorant-binding protein 56c)	1	-5.35	-4.48	-3.08
Obp56c (Odorant-binding protein 56c)	2	0.896	0.697	0.806

The list itself, from the start:
gene	reagent	Wolbachia per cell robust z, rep 1	Wolbachia per cell robust z, rep 2	Wolbachia per cell robust z, rep 3
mtDNA-helicase (mitochondrial DNA helicase)	1	-0.677	-5.01	-0.0534
Obp56c (Odorant-binding protein 56c)	1	-5.35	-4.48	-3.08
Obp56c (Odorant-binding protein 56c)	2	0.896	0.697	0.806
Obp56c (Odorant-binding protein 56c)	3	-0.304	-0.182	-0.322
CG44251 + CG44250	1	-1.81	-0.478	-0.498
CG44251 + CG44250	2	-0.576	-0.0186	1.7
CG13488	1	0.133	0.566	-1.93
CG5382	1	0.732	0.174	-1.22
PDCD-5 (Programmed Cell Death 5)	1	-2.53	-1.12	0.0169
hiw (highwire)	1	0.763	0.753	0.913
hiw (highwire)	2	-4.64	0.0884	0.525
hiw (highwire)	3	0.52	-0.124	0.41
CG15764	1	0.394	-2.23	-1.3
CG15764	2	0.0834	-0.231	0.0455
Rsph1 (Radial spoke head protein 1)	1	-0.359	-0.644	0.154
Rsph1 (Radial spoke head protein 1)	2	-0.185	-2.27	-0.882
CG3817	1	-3.13	0.906	0.487
CG3817	2	-0.744	-0.787	-0.595
Hmx (H6-like-homeobox)	1	-0.75	-1.23	0.432
Hmx (H6-like-homeobox)	2	-1.46	-3.44	-1.84
Hmx (H6-like-homeobox)	3	-1.64	-0.666	-0.326
Tnks (tankyrase)	1	-1.25	-2.14	0.598
CG12516	1	0.0173	-1	-0.803
Try29F (Trypsin 29F)	1	-5.28	-0.227	-0.412
Try29F (Trypsin 29F)	2	-2.48 (active)	-2.01	-1.46
CG13185	1	0.825	0.681	0.506
sea + fabp	1	-0.607	-1.73	-0.506
CG34280	1	0.488	-2.41	0.0038
VhaAC45RP (VhaAC45-related protein)	1	0.433	0.296	0.642
VhaAC45RP (VhaAC45-related protein)	2	1.32	0.799	1.42
CG30278	1	-0.652	-0.914	-1.11
CG9801	1	-9.86 (active)	-5.95	-1.27
Ugt37C1 (UDP-glycosyltransferase family 37 member C1)	1	0.479	0.617	0.729
Ugt37C1 (UDP-glycosyltransferase family 37 member C1)	2	-1.2	-1.98	-0.39
CG15740	1	-0.608	-0.0462	0.958
CG15740	2	-0.587	0.0968	-0.866
CG15740	3	0.275	-0.208	-1.59
Mhcl (Myosin heavy chain-like)	1	0.165	1.06	0.517
Mhcl (Myosin heavy chain-like)	2	0.527	0.335	-0.339
Mhcl (Myosin heavy chain-like)	3	-1.1	-0.717	-1.01
Sry-alpha (Serendipity alpha)	1	0.0234	-0.14	-0.951
Sry-alpha (Serendipity alpha)	2	-1.89	-1.81	-0.358
wda (will decrease acetylation)	1	0.408	0.476	-0.291
wda (will decrease acetylation)	2	0.11	0.396	0.71
CG11699	1	0.425	-0.808	0.0954
CG11699	2	0.248	-2.59	0.182
CG6550	1	0.989	-0.405	0.388
Brr2 (Brr2 U5 snRNP complex subunit)	1	0.992	1.35	0.122
CG13215	1	-0.577	0.945	0.448
CG30037	1	0.557	-0.423	-0.161
CG12986	1	0.203	0.997	0.0378
CG6508	1	1.37	0.167	0.161
Herp (Homocysteine-induced endoplasmic reticulum protein)	1	0.53	1.95	1.08
Herp (Homocysteine-induced endoplasmic reticulum protein)	2	-4.06 (active)	-0.591	-11.4
CG8834	1	0.526	0.816	0.998
mRpL32 (mitochondrial ribosomal protein L32)	1	-1.21 (active)	-3.45	-1.97
CG11034	1	1.14	-0.32	0.133
CG11034	2	0.428	0.555	0.985
CG12637	1	0.77	0.369	-0.375
CG12637	2	-5.26	-0.815	-0.0137
CG3257	1	-0.62	0.94	0.314
CG3257	2	0.894	1.06	0.363
Os-C	1	0.131	0.0705	-0.176
Os-C	2	-0.934	-0.738	-0.107
Cpr73D (Cuticular protein 73D)	1	-1.37	0.551	0.242
Cpr73D (Cuticular protein 73D)	2	0.6	-0.673	0.291
Dr (Drop)	1	-0.587	-0.298	0.193
Dr (Drop)	2	0.0113	0.71	1.1
